{"source": "paper PMC11544220", "about": "(Scientific Reports, 2024)", "binders": {"B1": {"name": "Stl-Avi, biotinylated full-length Stl for the BLI sensor (natural protein)", "chain": "MEGAGQMAELPTHYGTIIKTLRKYMKLTQSKLSERTGFSQNTISNHENGNRNIGVNEIEIYGKGLGIPSYILHRISDEFKEKGYSPTLNDFGKFDKMYSYVNKAYYNDGDIYYSSYDLYDETIKLLELLKESKINVNDIDYDYVLKLYKQILSTDTEKSIINYETLANTRKSSDKKREVTIEEIGEFHEKYLKLLFTNLETHNDRKKALAEIEKLKEESIYLGEKLRLVPNHHYDAIKGKPMYKLYLYEYPDRLEHQKKIILEKDTN", "modifications": "biotin on the Avi-tag"}}, "biological_target": "Mycobacterium tuberculosis dUTPase lacking the mycobacteria-specific loop A133-S137 (MtDUT^Δloop) (Mycobacterium tuberculosis, 133-AGLAS-137 (A133-S137) deleted)", "assay": "BLI"}
{"binder": "B1", "values": [{"measurement": "Kd", "value": "0.033 ± 0.001", "unit": "nM"}, {"measurement": "koff", "value": "5.99e-05", "unit": "s⁻¹"}, {"measurement": "kon", "value": "1.816e+06 ± 0.01", "unit": "M⁻¹ s⁻¹"}]}
